Results of unrelated studies side by side (data: NIAID ChemDB).

All rows: target-level tests; organism: Toxoplasma gondii

Percent inhibition refers to the dose given; in toxicity tests it is the harm to the cells. ICn is the concentration giving n% inhibition. Neighbouring rows are from separate reports. a–b is a range or a potency band. An empty or dashed field is not shown.

compound | strain or isolate | endpoint | protein | tested at | result
CCc1nc(N)nc(N)c1-c1ccc(Cl)c(Cl)c1 | - | IC50 | Dihydrofolate reductase | - | 0.094 µM
CC1(C)CN=C(NS(=O)(=O)c2ccc(N)cc2)S1 | - | IC50 | DHPS | - | 300 µM
Nc1nc(N)c2c(n1)CCC(CNc1cccc3ccccc13)C2 | - | IC50 | DHFR | - | 36 µM
Nc1cc(=O)[nH]c(=O)[nH]1 | RH | Ki | Uracil phosphoribosyltransferase | - | 2300 µM
CNc1nc2nc[nH]c2c(=O)[nH]1 | RH | inhibition | Phosphoribosyltransferase | 900 µM | <10%
Nc1nc(N)c2c(n1)CCCc1cc(Cl)c(Cl)cc1-2 | - | IC50 | Dihydrofolate reductase | - | 0.006 µM
COc1cccc2c1C(OC)CN2Cc1cnc2nc(N)nc(N)c2c1C | - | IC50 | Dihydrofolate reductase | - | 0.049 µM
Nc1nc(N)c2c(n1)CCc1ccc(Cl)cc1-2 | - | IC50 | Dihydrofolate reductase | - | 0.57 µM
CCOP(=O)(OCC)C(=NNc1ccc([N+](=O)[O-])cc1[N+](=O)[O-])P(=O)(OCC)OCC | - | IC50 | Pyrophosphate-dependent phosphofructokinase | - | 75 µM
CCc1nc(N)nc(N)c1-c1ccc(N(C)Cc2ccccc2)c(N)c1 | RH | IC50 | DHFR | - | 0.015 µM
Nc1ncnc2[nH]ncc12 | RH | inhibition | Phosphoribosyltransferase | 900 µM | <10%
CC(Oc1ccc(Oc2ccc(C(F)(F)F)cn2)cc1)C(=O)O | - | IC50 | Acetyl-CoA carboxylase | - | 400 µM
COc1ccc(OC)c(CN2CCc3nc(N)nc(N)c3C2)c1 | - | IC50 | DHFR | - | 0.3 µM
Cc1cc(C)nc(NS(=O)(=O)c2ccc(N)cc2)n1 | - | IC50 | DHPS | - | 430 µM
O=C(O)c1c[nH]c(=O)[nH]c1=O | RH | IC50 | Uracil phosphoribosyltransferase | - | >2000 µM
CN1Cc2[nH]cnc2N=C1N | RH | Ki | Phosphoribosyltransferase | - | 730 µM
CC(C)OP(=O)(CP(=O)(OC(C)C)OC(C)C)OC(C)C | - | IC50 | Pyrophosphate-dependent phosphofructokinase | - | >2000 µM
O=c1[nH]cc(I)c(=O)[nH]1 | RH | inhibition | Uracil phosphoribosyltransferase | 2000 µM | <5%
COc1cc([N+](=O)[O-])ccc1NN=C(P(=O)([O-])OC)P(=O)(OC)OC.[Na+] | - | IC50 | Pyrophosphate-dependent phosphofructokinase | - | 220 µM
CC1(C)N=C(N)N=C(N)N1c1ccc(CCC(=O)Nc2ccc(S(=O)(=O)F)cc2)cc1 | RH | IC50 | DHFR | - | 0.03 µM
Nc1nc(N)c2c(n1)Cc1c(Cl)cccc1-2 | - | IC50 | Dihydrofolate reductase | - | 4.7 µM
O=c1cccc[nH]1 | RH | inhibition | Uracil phosphoribosyltransferase | 2000 µM | <5%
CC(Oc1ccc(Oc2cnc3cc(Cl)ccc3n2)cc1)C(=O)O | - | IC50 | Acetyl-CoA carboxylase | - | 10–20 µM
S=c1[nH]ncc2[nH]cnc12 | RH | Ki | Phosphoribosyltransferase | - | 14 µM
Nc1ccc(S(=O)(=O)NC2CCC(O)CC2)cc1 | - | IC50 | DHPS | - | <270 µM
COc1cc([N+](=O)[O-])ccc1NN=C(P(=O)(OC)OC)P(=O)(OC)OC | - | IC50 | Pyrophosphate-dependent phosphofructokinase | - | 180 µM
Nc1nc(N)c2c(ccc3cc(Cl)c(Cl)cc32)n1 | - | IC50 | Dihydrofolate reductase | - | 0.043 µM
CSc1nncc2[nH]cnc12 | RH | inhibition | Phosphoribosyltransferase | 900 µM | <10%
c1cnccn1 | RH | IC50 | Uracil phosphoribosyltransferase | - | >2000 µM
Nc1nc(Cl)nc2nc[nH]c12 | RH | Ki | Phosphoribosyltransferase | - | 2200 µM
Nc1nc(N)c2cc(CO)cnc2n1 | - | IC50 | Dihydrofolate reductase | - | >104 µM
Cc1c(CNc2ccc(C(=O)NC(CC(=O)O)CC(=O)O)cc2)ccc2nc(N)nc(N)c12 | RH | IC50 | DHFR | - | 0.00294 µM
Nc1nc(N)c2c(n1)CCCc1ccc(Cl)cc1-2 | - | IC50 | Dihydrofolate reductase | - | 0.018 µM
O=C1CCCC(=O)N1 | RH | inhibition | Uracil phosphoribosyltransferase | 2000 µM | <10%
CN(CC1CCc2nc(N)nc(N)c2C1)c1cccc2ccccc12 | - | IC50 | DHFR | - | 23 µM
C1CCC([NH2+]C2CCCCC2)CC1.C1CCC([NH2+]C2CCCCC2)CC1.C1CCC([NH2+]C2CCCCC2)CC1.O=P([O-])([O-])C(F)(Cl)P(=O)([O-])O | - | IC50 | Pyrophosphate-dependent phosphofructokinase | - | >2000 µM
CCN(CC)c1ccc(-c2nc3c(N)nc(N)nc3nc2N)cc1 | RH | IC50 | DHFR | - | >74 µM
CCc1cnccn1 | RH | IC50 | Uracil phosphoribosyltransferase | - | >2000 µM
CC1(C)N=C(N)N=C(N)N1c1cccc(CCc2ccccc2)c1 | RH | IC50 | DHFR | - | 0.01 µM
CC(C)OP(=O)(OC(C)C)C(=O)P(=O)(OC(C)C)OC(C)C | - | IC50 | Pyrophosphate-dependent phosphofructokinase | - | 170 µM
CC/C(=N\OC/C=C/Cl)C1C(=O)CC(C2(SC)CC2)CC1=O | - | IC50 | Acetyl-CoA carboxylase | - | >400 µM
CN(Cc1cnc2nc(N)nc(N)c2n1)c1ccc(C(=O)N[C@H](CCC(=O)O)C(=O)O)cc1F | RH | IC50 | DHFR | - | 0.0119 µM
COc1cc(CN2CCc3nc(N)nc(N)c3C2)cc(OC)c1OC | - | IC50 | DHFR | - | 0.2 µM
Nc1nc(N)c2c(n1)CCc1c(Cl)cc(Cl)cc1-2 | - | IC50 | Dihydrofolate reductase | - | 0.08 µM
O=c1ccn([C@@H]2O[C@H](CO)[C@@H](O)[C@H]2O)c(=O)[nH]1 | RH | inhibition | Uracil phosphoribosyltransferase | 2000 µM | <10%
Cc1cnc(C)c(NS(=O)(=O)c2ccc(N)cc2)n1 | - | IC50 | DHPS | - | <340 µM
Nc1nc(N)c2c(n1)Cc1ccccc1-2 | - | IC50 | Dihydrofolate reductase | - | 1.8 µM

7 of the rows above, restated:

compound | strain or isolate | endpoint | protein | tested at | result
O=C1CCCC(=O)N1 | RH | inhibition | Uracil phosphoribosyltransferase | 2000 µM | <10%
Cc1cnc(C)c(NS(=O)(=O)c2ccc(N)cc2)n1 | - | IC50 | DHPS | - | <340 µM
COc1cc(CN2CCc3nc(N)nc(N)c3C2)cc(OC)c1OC | - | IC50 | DHFR | - | 0.2 µM
C1CCC([NH2+]C2CCCCC2)CC1.C1CCC([NH2+]C2CCCCC2)CC1.C1CCC([NH2+]C2CCCCC2)CC1.O=P([O-])([O-])C(F)(Cl)P(=O)([O-])O | - | IC50 | Pyrophosphate-dependent phosphofructokinase | - | >2000 µM
CC/C(=N\OC/C=C/Cl)C1C(=O)CC(C2(SC)CC2)CC1=O | - | IC50 | Acetyl-CoA carboxylase | - | >400 µM
CCc1nc(N)nc(N)c1-c1ccc(Cl)c(Cl)c1 | - | IC50 | Dihydrofolate reductase | - | 0.094 µM
O=c1[nH]cc(I)c(=O)[nH]1 | RH | inhibition | Uracil phosphoribosyltransferase | 2000 µM | <5%